Laboratory results: patent US20230357367A1

Assays:
[1] = biological target: T1, SARS-CoV-2 spike S2 peptide 1143-1162 (stem helix region), biotinylated (SARS-CoV-2); assay: SPR, Fab over captured biotin-peptide, 25 C
[2] = biological target: SARS-CoV-2 spike S2 peptide 1141-1155, biotinylated (SARS-CoV-2); assay: DELFIA, IgG titrated on captured biotin-peptide; design: unit not given beside the values
[3] = biological target: T1, SARS-CoV-2 spike S2 peptide 1143-1162 …; assay: DELFIA, IgG titrated on captured biotin-peptide; design: unit not given beside the values

Binder | Kd [1] [nM] | koff [1] [s⁻¹] | kon [1] [M⁻¹ s⁻¹] | AUC [2] | AUC [3]
Reference Antibody Fab (Fab, V domains shown) VH: EVQLVESGAEVKKPGESLKISCKGSGYTFTRYWIGWVRQMPGKGLEWMGIIYPGDSDTRYSPSFQGHVTISADKSISTAYLQWNSLKASDTAMYYCARLPQYCSNGVCQRWFDPWGQGTLVTVSS VL: EIVLTQSPSSVSASVGDRVTITCRASQGISSWLAWYQQKPGKAPKLLIYAASSLQSGVPSRFSGSGSGTDFTLTISSLQPEDFATYYCQQGNSFPYTFGQGTNLEIK | 64.2 | 0.0306 | 477000 |  | 
Reference Antibody (antibody, V domains shown) VH: EVQLVESGAEVKKPGESLKISCKGSGYTFTRYWIGWVRQMPGKGLEWMGIIYPGDSDTRYSPSFQGHVTISADKSISTAYLQWNSLKASDTAMYYCARLPQYCSNGVCQRWFDPWGQGTLVTVSS VL: EIVLTQSPSSVSASVGDRVTITCRASQGISSWLAWYQQKPGKAPKLLIYAASSLQSGVPSRFSGSGSGTDFTLTISSLQPEDFATYYCQQGNSFPYTFGQGTNLEIK |  |  |  | 2270 | 3.25e+06
